Laboratory results reported in publication PMC7004148, “Flexible Fragment Growing Boosts Potency of Quorum‐Sensing Inhibitors against Pseudomonas aeruginosa Virulence” (Chemmedchem, 2019).

system: pyocyanin in P. aeruginosa PA14; experiment: Pyocyanin assay in P. aeruginosa PA14 cultures; type: cell-based, Pseudomonas aeruginosa PA14; conditions: PEI=pIC50/MW
Procedure: 6. Effects in P. aeruginosa
Pyocyanin Assay. The inhibition of virulence factor pyocyanin was measured as described previously[26] following a procedure established by Essar et al.[28] Briefly, Pseudomonas aeruginosa PA14 cultures were grown in the presence of inhibitors or DMSO as control for 16 h. Pyocyanin was determined photometrically after extraction of the cultures with chloroform and re-extraction with 0.2 M HCl. Protonated red colored pyocyanin was determined by measuring OD520 and normalizing to OD600. None of the compound impaired bacterial viability as observed by the OD600 parameter. Inhibition values were expressed in relation to the DMSO control. Each value is the mean of at least two independent experiments with n=3.
The given IC50 values represent the mean of at least two experiments using at least five different concentrations. Curve fitting was performed using the log (inhibitor) vs response model with constrained bottom = 0 and top =100 (GraphPad Prism 5.0).
Figure S4: Inhibition of virulence factor pyocyanin was evaluated in the clinical isolate PA14.
Representative dose-response curves a) compound 11 b) compound 20. Black dotes (•) represent the reduction of pyocyanin in presents of a given compound concentration relative to DMSO control (= 0 %). The continuous black line is the none -linear regression analysis to […]
(1 picture or pasted object on this page, not shown here)

**Q.** Which “PEI (Pyocyanin Efficiency Index)” value does the source give for `Nc1cc(NCc2ccc(F)cc2)cc(C(F)(F)F)n1` [Compound 11] here?
**A.** Its value is 0.0140.

**Q.** For `Nc1cc(NCCCc2ccc(F)cc2)cc(C(F)(F)F)n1` [Compound 20], which “PEI (Pyocyanin Efficiency Index)” value is on record?
**A.** The value was 0.0168.

**Q.** `O=C(CSc1nc2ccc([N+](=O)[O-])cc2[nH]1)Nc1ccc(Oc2ccccc2)cc1` [Compound R1, reference compound] was tested. Which “PEI (Pyocyanin Efficiency Index)” value did it give?
**A.** The value was 0.0165.

**Q.** For `CCCCCCCc1[nH]c2ccc([N+](=O)[O-])cc2c(=O)c1C(N)=O` [Compound R2, reference compound], which “PEI (Pyocyanin Efficiency Index)” value is on record?
**A.** The value was 0.0172.
